Measurements from “University of Dundee, Small-Polar-MMV Screening Library” (2021), ChEMBL document CHEMBL3988442.

Mtb glucose medium: 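Whole-cell growth test on Mycobacterium tuberculosis, read after 3 days in glucose-containing 7H9 medium; the read-out is not stated. Concentration: 50 µM. Higher reads as more growth inhibition (inferred: compounds with an IC50 in retests scored well above the rest). Of about 69,000 compounds tested this way, about 760 (1.1%) reached 50% or more in at least one test.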
Mtb cholesterol medium: 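Phenotypic screen: M. tuberculosis growth, cholesterol and DPPC medium, 4 days; the read-out is not stated. Tested at 50 µM. Direction is inferred from retests: higher values go with more growth inhibition. About 69,000 compounds were tested under these conditions; 0.54% (about 370) showed 50% or more at least once.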

Each number is a percent effect as filed.
The controls that fix the scale are not given in the record; negative values are as filed.
Many other results are left out here, so strong results are more common than in the screen.
Two or more numbers in one place are separate tests of the same structure; such repeats can differ widely.
A dash means the value is not listed here; it may have been measured.

| structure | Mtb glucose medium | Mtb cholesterol medium |
|---|---|---|
| `CCC[C@H]1CN(S(=O)(=O)c2cc(C)ccc2F)C[C@@H]1N` | 15.41 | - |
| `COc1ccsc1C(=O)Nc1cc(Cl)c(=O)n(C)c1` | - | 2.818 |
| `COC(=O)CSCc1noc(-c2ccc(C)cc2)n1` | 53.81 and 67.49 | 22.19 |
| `O=C(NCCC(=O)N1CCCc2ccccc21)c1ccc(F)cc1F` | -13.49 | - |
| `Cc1nc2c(Nc3ccc(C#N)cc3)nc(N)nc2n1C` | -5.087 | -13.51 |
| `CC(C)CC(C)N(C)Cc1nnc(-c2ccco2)o1` (stereo unspecified) | - | 3.466 |
| `O=C(O)C(F)(F)F.[H][C@@]12C[C@@H](c3nc(C)cs3)O[C@]1([H])CN(c1ncc(F)cn1)C2` | 15.44 | - |
| `CCN(C(=O)CCOC)C(c1ccc(Cl)cc1)c1ccccn1` (stereo unspecified) | - | -5.115 |
| `CCN(Cc1ccccc1)C(=O)CCN1CC(O)C1` | 18.69 and 50.07 | - |
| `COc1ccc(-n2cc(CNC(=O)c3cc[nH]n3)nn2)cc1` | 3.652 and 6.811 | - |
| `c1ccc2sc(N3CCC4(CCCN4Cc4ncc[nH]4)CC3)nc2c1` | 28.15 | - |
| `C1CC(c2noc(C3CC3)n2)CN(CCOCC2CC2)C1` (stereo unspecified) | -42.56 | 3.754 and 0.3684 |
| `COc1coc(CN2CCCC(CCc3ccc(F)cc3)C2)cc1=O` (stereo unspecified) | 28.29 and 40.3 | 43.66 |
| `O=C(Cc1cccc(Cl)c1)N[C@@H]1CCNC[C@H]1O` | 7.96 | -6.745 |
| `O=C(c1cnccn1)N(CCO)Cc1cc(Br)ccc1F` | 2.991 and 8.406 | - |
| `CN(C)CCN1C(=O)CCC12CCCN(C(=O)c1cccnc1)CC2.O=C(O)C(F)(F)F.O=C(O)C(F)(F)F` (stereo unspecified) | - | 1.071 and 52.15 |
| `CCc1ccccc1OC1CN(C(=O)c2cccs2)C1` | 36.7 | 46.05 and 48.79 |
| `Cc1cnc(C)c(N2CCN(Cc3ccc(-c4cc[nH]n4)o3)CC2)n1` | 50.26 | - |
| `CCc1ccc(C(=O)NCc2cccc(S(=O)(=O)NC)c2)o1` | 3.138 | 2.955 |
| `Cc1nc(C2CCCN(C(=O)c3ccc(S(C)(=O)=O)cc3)C2)no1` (stereo unspecified) | 93.51 | - |
| `CN(C)c1nc2c(c(N3CCc4ccccc4C3)n1)CCNC2` | 59.44 | 39.95 and 39.02 |
| `Br.Cc1ccc(C(=O)CN(C2=NCCCCC2)c2ccccc2)cc1` | 53.14 | 35.63 |
| `CCNC(=O)N1CCC(=Cc2ccccc2)CC1` | -1.807 and 18.96 | 12.64 |
| `Cc1cc(-n2cncn2)ccc1C(=O)N(CC(F)(F)F)C(C)C` | -21.05 | - |
| `O=C1CNc2ncnc(N3CCN(c4ccccc4F)CC3)c2N1` | 96.61 | - |
| `CSCC(=O)N(C)Cc1ccc(N(C)C)cc1` | 12.2 | - |
| `Cc1noc(C(C)Nc2ccc3oc(C)nc3c2)n1` (stereo unspecified) | - | -18.26 |
| `COC(=O)c1ccc(CN(C(C)C)C(C)C)o1.Cl` | -8.134 and -5.146 | -7.586 |
| `Cl.Cl.Clc1cccc(C[C@@H]2NCCC[C@@H]2Nc2cccc(Cl)c2)c1` | 118.1 | 111.7 |
| `CSc1nccc(N2CCC3(CCCN(CCc4ccccc4)C3)C2)n1` (stereo unspecified) | 58.12 | - |
| `CC(C)Cc1nc(CN(C)CCOc2ccc(F)cc2)no1` | 35.42 | - |
| `Cc1cc(C(=O)N2CCN(c3nc4c(C)cccc4s3)CC2)no1` | 26.49 | 13.75 |
| `CN(Cc1ccco1)C(=O)CN1CCN(C)c2ccccc2C1` | 8.043 | -8.417 |
| `CSCC(C)(O)CNc1ncccc1C(F)(F)F` (stereo unspecified) | 4.129 | - |
| `COc1c(Br)cccc1CCNC(=O)c1ncoc1C` | 29.36 and 13.69 | - |
| `CCC(=O)Nc1nnc2n(Cc3cccc(OC)c3)[nH]c(C)c1-2` | 19.7 and 111.3 | - |
| `c1ccc(-c2nc3c(c(NCc4nnc5n4CCC5)n2)CCNC3)cc1` | 3.645 and -11.33 | -5.454 |
| `Cc1cc(CN2CCCC2c2noc(C)n2)no1` (stereo unspecified) | 4.667 | - |
| `COc1cc(CN2CCCC2)ccc1Oc1ncccc1C(F)(F)F` | 12.32 and 13.08 | - |
| `CN1CCC2(CC1)CC(NC(=O)c1csnn1)c1ccccc1O2.O=C(O)C(F)(F)F` (stereo unspecified) | 47.7 | - |
| `O=C(NCc1cnn2cccnc12)c1cccc(CC2CCNCC2)c1` | 79.2 and 69.56 | 53.27 |
| `Cc1nc(-c2cccc(C(=O)O)c2)cc(C2CCCN(C(C)C)C2)n1` (stereo unspecified) | -38.73 | - |
| `COc1ccc(F)cc1CN(CC(N)=O)C(C)C` | - | -35.23 |
| `CCCC(C)CS(=O)(=O)NCc1cccnc1OC` (stereo unspecified) | 23.75 | 5.162 |
| `CN1CCC(Cc2cc(Nc3ncccn3)ncn2)CC1` | - | 54.55 |
| `Cc1ccc2cc(C(=O)N3CCS(=O)(=O)CC3)[nH]c2c1` | -2.055 | -1.06 |
| `CCS(=O)(=O)N1CCC(NCC2CNc3cc(C)nn3C2)CC1` (stereo unspecified) | 5.796 and -59.8 | - |
| `Cn1ncc2c(NCCn3cccc3)nc(C3CCCC3)nc21` | 10.76 | - |
| `CC(C)n1cc(C(=O)NCC(CO)Cc2cccs2)cn1` (stereo unspecified) | 7.832 and -0.2664 | 4.694 |
| `Cn1nnc(NCc2ccc(-c3ccc(Br)cc3)o2)n1` | 73.92 and 13.45 | - |
| `Cc1nsc(C(=O)NCCc2ccc(S(N)(=O)=O)cc2)n1` | 21.69 | 2.64 |
| `CCC(=O)NCC(c1ccc(SC)cc1)N1CCc2sccc2C1` (stereo unspecified) | 35.87 | - |
| `CS(=O)(=O)N1CCOCC2(CN(Cc3ccsc3)CCO2)C1.O=C(O)C(F)(F)F` (stereo unspecified) | - | 5.905 |
| `c1csc(N2CCCN(Cc3noc(C4CC4)n3)CC2)n1` | - | -14.69 |
| `CCc1noc(CNc2cc3c(cc2Cl)OCCO3)n1` | 29.13 and 63.6 | - |

For reference, 4 entries once more:

Result for CCc1noc(CNc2cc3c(cc2Cl)OCCO3)n1 was Mtb glucose medium: 29.13% and 63.6%.
Result for COc1ccsc1C(=O)Nc1cc(Cl)c(=O)n(C)c1 was Mtb cholesterol medium: 2.818%.
Result for CN1CCC2(CC1)CC(NC(=O)c1csnn1)c1ccccc1O2.O=C(O)C(F)(F)F (stereo unspecified) was Mtb glucose medium: 47.7%.
Result for C1CC(c2noc(C3CC3)n2)CN(CCOCC2CC2)C1 (stereo unspecified) was Mtb glucose medium: -42.56%; Mtb cholesterol medium: 3.754% and 0.3684%.